The record followed here is ChEMBL document CHEMBL6134901 (J Med Chem, 2025).

The nature of the assay: Selectivity ratio of IC50 for inhibition of bacterial CspB to Kd for binding affinity to bacterial CspB assessed as dissociation constant.

For `Cl.NCc1ccc(-c2nc(-c3ccnc(Oc4ccc(C(F)(F)F)cc4)c3)no2)cc1`, the Ratio is 3.9.
